Assay results taken from PMC7000732, “Bridging non-overlapping reads illuminates high-order epistasis between distal protein sites in a GPCR” (Nature Communications, 2020).

Experiment: Whole-cell saturation radioligand binding
Parameters: species or system Saccharomyces cerevisiae

| Molecule | functional yield (Bmax) relative to wild-type A2aR |
| --- | --- |
| TGRIA: Variant GRIA (T88/Q89G/W246R/L249I/H250A) of human adenosine A2a receptor (protein, UniProt P29274 1-412, looked up, variant Q89G W246R L249I H250A) Adenosine receptor A2a: MPIMGSSVYITVELAIAVLAILGNVLVCWAVWLNSNLQNVTNYFVVSLAAADIAVGVLAIPFAITISTGFCAACHGCLFIACFVLVLTGSSIFSLLAIAIDRYIAIRIPLRYNGLVTGTRAKGIIAICWVLSFAIGLTPMLGWNNCGQPKEGKNHSQGCGEGQVACLFEDVVPMNYMVYFNFFACVLVPLLLMLGVYLRIFLAARRQLKQMESQPLPGERARSTLQKEVHAAKSLAIIVGLFALCRLPIAIINCFTFFCPDCSHAPLWLMYLAIVLSHTNSVVNPFIYAYRIREFRQTFRKIIRSHVLRQQEPFKAAGTSARVLAAHGSDGEQVSLRLNGHPPGVWANGSAPHPERRPNGYALGLVSGGSAQESQGNTGLPDVELLSHELKGVCPEPPGLDDPLAQDGAGVS | 1.2 fold |
| TAWLH: single-residue mutant Q89A of A2aR, positive control reported to exhibit improved binding affinity to NECA (protein, UniProt P29274 1-412, looked up, variant Q89A, decahistidine tag) Adenosine receptor A2a: MPIMGSSVYITVELAIAVLAILGNVLVCWAVWLNSNLQNVTNYFVVSLAAADIAVGVLAIPFAITISTGFCAACHGCLFIACFVLVLTASSIFSLLAIAIDRYIAIRIPLRYNGLVTGTRAKGIIAICWVLSFAIGLTPMLGWNNCGQPKEGKNHSQGCGEGQVACLFEDVVPMNYMVYFNFFACVLVPLLLMLGVYLRIFLAARRQLKQMESQPLPGERARSTLQKEVHAAKSLAIIVGLFALCWLPLHIINCFTFFCPDCSHAPLWLMYLAIVLSHTNSVVNPFIYAYRIREFRQTFRKIIRSHVLRQQEPFKAAGTSARVLAAHGSDGEQVSLRLNGHPPGVWANGSAPHPERRPNGYALGLVSGGSAQESQGNTGLPDVELLSHELKGVCPEPPGLDDPLAQDGAGVS | 1.4–1.7 fold |
| TSWLH: single-residue mutant Q89S of A2aR, the most abundant variant in PS4 (protein, UniProt P29274 1-412, looked up, variant Q89S) Adenosine receptor A2a: MPIMGSSVYITVELAIAVLAILGNVLVCWAVWLNSNLQNVTNYFVVSLAAADIAVGVLAIPFAITISTGFCAACHGCLFIACFVLVLTSSSIFSLLAIAIDRYIAIRIPLRYNGLVTGTRAKGIIAICWVLSFAIGLTPMLGWNNCGQPKEGKNHSQGCGEGQVACLFEDVVPMNYMVYFNFFACVLVPLLLMLGVYLRIFLAARRQLKQMESQPLPGERARSTLQKEVHAAKSLAIIVGLFALCWLPLHIINCFTFFCPDCSHAPLWLMYLAIVLSHTNSVVNPFIYAYRIREFRQTFRKIIRSHVLRQQEPFKAAGTSARVLAAHGSDGEQVSLRLNGHPPGVWANGSAPHPERRPNGYALGLVSGGSAQESQGNTGLPDVELLSHELKGVCPEPPGLDDPLAQDGAGVS | 1.4–1.7 fold |
